system: Vero monkey kidney cells; experiment: In vitro toxicity, MTS assay in Vero cells; assay type: cell-based; details: not given
Procedure: Cytotoxicity The Vero cell line (ATCC CCL-8 1) was seeded overnight at 5×10^4 cells per well in 96-well plates at 37° C. and 5% CO2 in EMEM with essential amino acids and glutamine (BioFluids) supplemented with 10% heat-inactivated fetal bovine serum (FBS). Cells were exposed to dilutions of experimental and control drugs in triplicate for 72 hr, with each compound at a range of concentrations from 15-200 μM. Chlorpromazine (Sigma) was run as a control at the same concentrations. CellTiter 96 AQueous Assay (Promega) was used for determination of Vero cell viability. Briefly, a solution of MTS salt (3-(4,5-dimethylthiazol-2-yl)-5-(3-carboxymethoxyphenyl)-2-(4-sulfophenyl)-2H-tetrazolium) and phenazine methosulfate was added to each well and plates were incubated for 2 hr at 37° C. and 5% CO2. Absorbance of each well was read using BioRad microplate reader at 490 nm. Viability (absorbance) of cells in drug-exposed wells was compared to those in drug-free control wells, and a curve relating cell viability to drug concentration was created.

Row | SMILES | SI (selectivity index, ratio of IC50:MIC)
1 | Fc1ccccc1N1CCN(C2CCC3CCCCC3C2)CC1 (stereo not drawn) [#765, N-(2-Fluorophenyl)-N′-(2-decalone)piperazine] | 11.2
2 | c1ccc(CN2CCN(C3CCC4CCCCC4C3)CC2)cc1 (stereo not drawn) [#787, N-Benzyl-N′-2-Decalonepiperazine] | 5.6

system: HepG2 cell line; experiment: In vitro cytotoxicity, MTS assay in HepG2 cell line; assay type: cell-based; details: ratio IC50 to MIC

Row | SMILES | SI IC50:MIC
3 | C1CCCC(N2CCCN(C3CCCCCCC3)CC2)CCC1 [SQ777] | 9.49
4 | C1CCC2CC(N3CCCN(C4CCC5CCCCC5C4)CC3)CCC2C1 (stereo not drawn) [SQ778, N,N′-Bis(2-Decalone)homopiperazine] | 6.92
5 | C=C(C)[C@@H]1CC=C(CN2CCCN(CC3=CC[C@@H](C(=C)C)CC3)CC2)CC1 [SQ781] | low SI values
6 | c1ccc(COc2ccc(CN3CCN(Cc4ccccc4)CC3)cc2)cc1 [SQ786, N -benzyl-N′-(4-benzyloxy)benzylpiperazine] | 17.25
